Pooled drug test results. Numbers come from NIAID ChemDB, via PubChem.

Shared fields: toxicity to cultured cells; cells: MT-4; read-out: CC50

CCn: concentration that lowers growth or viability of the cells by n%.

structure	read by	value
CC(=O)c1cc(-c2ccccc2)n(-c2cccc(N=[N+]=[N-])c2)c1C	-	6.3 µM
O=c1ccn([C@H]2C[C@H](F)[C@@H](CO)O2)c(=O)[nH]1	-	75 µM
O=C1/C(=N\n2c(-c3ccncc3)n[nH]c2=S)c2cc(Br)ccc2N1CN1CCOCC1	-	10.9 µM
CCOC(=O)c1cc2c3cccc(OC)c3c3c(N)cccc3n2c1C	-	>200 µM
CCOC(=O)C(C)N(CC=C(C)C)S(=O)(=O)c1cc(Cl)ccc1N	MTT	>200 µM
O=C1N(Cc2ccccc2)c2cccn2S(=O)(=O)N1Cc1cccc(F)c1	MTT	288 µM
CCOC(=O)c1cc(-c2ccccc2)n(-c2cccc(N)c2)c1C	-	>300 µM
NNc1nc2c(Cl)cccc2s1	MTT	>117 µg/mL
Cc1cn([C@H]2C[C@H](N=[N+]=[N-])[C@@H](COP(=O)(O)C(=O)NCCN)O2)c(=O)[nH]c1=O	MTT	>2400 µM
CC1(C)[C@@H](CCO)C[C@H]1n1nnc2c(Cl)nc(N)nc21	-	190 µg/mL
CCc1c(Cl)nc(Nc2ccc(C#N)cc2)nc1Oc1ccc2ccccc2c1Cl	MTT	169 µM
CC1=C(/C=C/C=C/C=C/C=C/C(=O)OC[C@H]2O[C@@H](n3ccc(N)nc3=O)CS2)C(C)(C)CCC1	-	40 µM
Cc1cn([C@H]2C[C@H](N=[N+]=[N-])[C@@H](COP(=O)(O)C(Cl)(Cl)Cl)O2)c(=O)[nH]c1=O	MTT	1340 µM
C=CCOCn1c(CC2CCCc3ccccc32)c(CC)c(=O)[nH]c1=O	MTT	32 µM
CCCc1csc(NC(=S)NCCc2ccccc2)n1	-	>330 µM
CN(C)CN1C(=O)/C(=N\n2c(-c3ccncc3)n[nH]c2=S)c2cc(Cl)ccc21	-	12.2 µM
Cc1cn([C@H]2S[C@@H](CO)C[C@@H]2N=[N+]=[N-])c(=O)[nH]c1=O	-	>100 µM
CCOC(=O)c1cc(-c2cccc(OC)c2)n(-c2cccc(Br)c2)c1C	-	10 µM
Cc1cn([C@]2(C)CO[C@@H](CO)O2)c(=O)[nH]c1=O	MTT	>100 µM
CC1(C)[C@@H](CCO)C[C@H]1n1cnc2c(=O)[nH]c(N)nc21	-	≥250 µg/mL
COC(=O)N[C@H](C(=O)NN(CC[C@@]1(Cc2ccccc2)C(=O)N(C2c3ccccc3C[C@H]2O)C[C@@H]1O)Cc1ccc(Br)cc1)C(C)(C)C	XTT	31 µM
Cc1ccc(Cl)cc1NC(=S)NCc1ccco1	MTT	100 µM
CNc1nc(Nc2ccc(C#N)cc2)nc(Oc2ccc3ccccc3c2Br)c1C	MTT	178 µM
CNc1ncnc2c1ncn2[C@H]1S[C@H](CO)C[C@@H]1N=[N+]=[N-]	-	>100 µM
CC1C(=S)Nc2ccc(Cl)cc2S(=O)(=O)N1CC1CC1	MTT	>200 µM
COC(=O)N[C@H](C(=O)NN(CC[C@@]1(Cc2ccccc2)C(=O)N(C2c3ccccc3C[C@H]2O)C[C@@H]1O)Cc1ccc(-c2ccncc2)cc1)C(C)(C)C	XTT	31 µM
CC1CCC(C(C)C)/C(=N/NC(=S)Nc2cccc(Cl)c2)C1	-	44.6 µg/mL
CCc1c(Cl)nc(Nc2ccc(C#N)cc2)nc1Oc1ccc2cc(C#N)ccc2c1	MTT	197 µM
COc1ccc([C@H]2c3c(cc4c(c3OC)OCO4)C[C@@H](C)[C@@H]2C)cc1O	-	127 µM
O=C1Nc2ccc(Br)cc2/C1=N/n1c(-c2ccncc2)n[nH]c1=S	-	11.2 µM
CC(C)CN(C[C@@H](O)[C@H](Cc1ccccc1)NC(=O)OCc1cccnc1)S(=O)(=O)c1ccc2nc[nH]c2c1	-	>100 µM
CCOC(=O)c1cc(-c2cccc(OC)c2)n(-c2cccc(Cl)c2)c1C	-	100 µM
CC(C)Oc1cccc(CCNC(=S)Nc2nccs2)c1	-	16 µM
COC(=O)N[C@H](C(=O)NN(CC[C@@]1(Cc2ccccc2)C(=O)N(C2c3ccccc3C[C@H]2O)C[C@H]1O)Cc1ccc(-c2ccccn2)cc1)C(C)(C)C	XTT	31 µM
COc1cc([C@H]2c3c(cc(OC)c(OC)c3OC)C[C@H]3CSC[C@@H]32)cc(OC)c1OC	-	58 µM
COC(=O)[C@H](C)NP(=O)(OC[C@@H]1C=C[C@H](n2cc(CC(=O)NCCCCCCNC(=O)C(F)(F)F)c(=O)[nH]c2=O)O1)Oc1ccccc1	MTT	>10 µM
COC(=O)Nc1nc2ccc(S(=O)(=O)N(CC(C)C)C[C@@H](O)[C@H](Cc3ccccc3)NC(=O)COc3c(C)cc(CN)cc3C)cc2[nH]1	-	13.8 µM
CCOC(=O)c1cc(-c2ccccc2)n(-c2cccc(N=[N+]=[N-])c2)c1C	-	176 µM
CNc1nc(Nc2ccc(C#N)cc2)nc(Oc2ccc3cc(C#N)ccc3c2)c1C(C)C	MTT	>288 µM
CC(C)CN(C[C@@H](O)[C@H](Cc1ccccc1)NC(=O)O[C@H]1CO[C@H]2OCC[C@H]21)S(=O)(=O)c1ccc2c(c1)/C(=C/c1ccc(N(C)C)cc1)C(=O)N2	-	100 µM
CC1C(=S)Nc2ccc(Cl)cc2S(=O)(=O)N1CC=Cc1ccccc1	MTT	16 µM
CNc1ncnc2c1ncn2[C@@H]1S[C@@H](CO)C[C@@H]1N=[N+]=[N-]	-	>100 µM
CC(C)CN(C[C@@H](O)[C@H](Cc1ccccc1)NC(=O)O[C@H]1CO[C@H]2OCC[C@H]21)S(=O)(=O)c1ccc2c(c1)/C(=C/c1ccc(-c3ccccn3)cc1)C(=O)N2	-	63.1 µM
Cc1cn(N2CC[C@H](CO)[C@H]2CO)c(=O)[nH]c1=O	-	>10 µg/mL
COC(=O)N[C@H](C(=O)NN(CCC[C@@]1(Cc2ccccc2)C(=O)N(C2c3ccccc3C[C@H]2O)C[C@H]1O)Cc1ccc(-c2ccccn2)cc1)C(C)(C)C	XTT	31 µM
Cc1cccc(C)c1OCC(=O)N[C@@H](Cc1ccccc1)[C@H](O)CN(CC(C)C)S(=O)(=O)c1ccc2ncn(CC(C)C)c2c1	-	>100 µM
O=C1N(Cc2ccccc2Cl)c2cccn2S(=O)(=O)N1Cc1ccccc1	MTT	291 µM
CCCCCCCCCC(=O)O[C@@]12[C@H](OCOC)[C@@H](C)[C@@]3(O)[C@@H](C=C(CO)C[C@]4(O)C(=O)C(C)=C[C@@H]34)[C@@H]1C2(C)C	MTT	8.32 µg/mL
N#CCN1C(=O)N(Cc2ccccc2)S(=O)(=O)n2cccc21	MTT	187 µM
Cc1cn([C@H]2C[C@H](N=[N+]=[N-])[C@@H](COP(=O)(O)C(=O)NCC[N+](C)(C)C)O2)c(=O)[nH]c1=O	MTT	>2200 µM
O=c1[nH]c(=O)n([C@H]2C[C@H](F)[C@@H](CO)O2)cc1/C=C/Br	-	300 µM
CC(C)CN(C[C@@H](O)[C@H](Cc1ccccc1)NC(=O)OCc1cncs1)S(=O)(=O)c1ccc2ncn(CCc3ccccc3)c2c1	-	>100 µM
S=C(NCc1ccco1)Nc1ccc(I)cc1	MTT	36.5 µM
CC1CCC(C(C)C)/C(=N/NC(=S)Nc2ccccc2)C1	-	108.1 µg/mL
Cc1cc(C)cc(S(=O)(=O)c2c(C(=O)/C=C/C(N)=O)[nH]c3ccc(Cl)cc23)c1	MTT	>200 µM
COc1c2c(cc3c1[C@H](c1ccc(O)c(Oc4ccccc4)c1)[C@H]1C(=O)OC[C@@H]1C3)OCO2	-	>840 µM
O=C(NCCc1ccccc1)Nc1nccs1	-	113 µM
Cc1cnc(=O)n([C@H]2C[C@H](F)[C@@H](CO)O2)c1	-	300 µM
CNc1ncnc2c1ncn2[C@@H]1S[C@H](CO)C[C@@H]1N=[N+]=[N-]	-	>100 µM
CCOCn1c(Cc2ccccc2)c(C(C)C)c(=O)[nH]c1=O	MTT	>100 µM
CC(C)CN(C[C@@H](O)[C@H](Cc1ccccc1)NC(=O)OC(C)(C)C)S(=O)(=O)c1ccc2ncn(CCc3ccccc3)c2c1	-	10.2 µM
c1ccc(CO[C@@H]2[C@H](OCc3ccccc3)[C@@H]3OC[C@@H](O3)[C@H]2OCc2ccccc2)cc1	MTT	>200 µg/mL
CC(C)CN(C[C@@H](O)[C@H](Cc1ccccc1)NC(=O)O[C@H]1CO[C@H]2OCC[C@H]21)S(=O)(=O)c1ccc2nc(N)n(C)c2c1	-	>100 µM
O=c1[nH]c(=S)ccn1[C@H]1C[C@H](F)[C@@H](CO)O1	-	130 µM
O=C1N(Cc2ccccc2Cl)c2cccn2S(=O)(=O)N1Cc1cccc(F)c1	MTT	262 µM
COC(=O)[C@H](C)NP(=O)(OC[C@H]1C=C[C@@H](n2cc(CC(=O)NCCCCCCCCCCCCNC(=O)C(F)(F)F)c(=O)[nH]c2=O)O1)Oc1ccccc1	MTT	>10 µM
C=C(C)CN1C(C)C(=O)Nc2ccc(Cl)cc2S1(=O)=O	MTT	≥200 µM
CCc1csc(NC(=S)NCCc2c(F)cccc2F)n1	-	>305 µM
COC(=O)N[C@H](C(=O)NN(CCC[C@@]1(Cc2ccccc2)C(=O)N(C2c3ccccc3C[C@H]2O)C[C@H]1O)Cc1ccc(Br)cc1)C(C)(C)C	XTT	31 µM
CC1=C(/C=C/C=C/C=C/C=C/C(=O)Nc2ccn([C@H]3CS[C@@H](CO)O3)c(=O)n2)C(C)(C)CCC1	-	50 µM
COc1cc([C@H]2c3c(cc4c(c3OC)OCO4)C[C@H]3COC(=O)[C@@H]32)cc(C)c1OC	-	486 µM
Cc1cccc(C)c1OCC(=O)N[C@@H](Cc1ccccc1)[C@H](O)CN(CC(C)C)S(=O)(=O)c1ccc2nc[nH]c2c1	-	61.7 µM
O=c1[nH]c(=O)n([C@@H]2C=C[C@H](CO)O2)cc1CCO	MTT	>1 µM
CCOC(=O)c1cc2c3ccccc3c3ccc(N)cc3n2c1C	-	21 µM
CN(C)CN1C(=O)/C(=N\n2c(-c3ccncc3)n[nH]c2=S)c2ccccc21	-	10.3 µM
Cc1cn(CCCO[C@H]2C=C[C@@H](CO)O2)c(=O)[nH]c1=O	MTT	20 µg/mL
O=C(NCCCc1cn([C@H]2C=C[C@@H](CO)O2)c(=O)[nH]c1=O)C(F)(F)F	MTT	>100 µM
Fc1ccccc1NC(=S)NC1CCN(Cc2ccccc2)CC1	MTT	95 µM
CC(C)CN(C[C@@H](O)[C@H](Cc1ccccc1)NC(=O)O[C@H]1CCOC1)S(=O)(=O)c1ccc2ncn(CCc3ccccc3)c2c1	-	63.1 µM
C[C@]1(n2ccc(N)nc2=O)CO[C@@H](CO)O1	MTT	>100 µM
CC1CCC(C(C)C)/C(=N/NC(=O)Nc2ccc(Cl)cc2)C1	-	28.4 µg/mL
COC(=O)Cc1cn([C@@H]2C=C[C@H](CO)O2)c(=O)[nH]c1=O	MTT	>100 µM
C[C@@]1(n2ccc(=O)[nH]c2=O)CO[C@@H](CO)O1	MTT	>100 µM
CCc1c(NC)nc(Nc2ccc(C#N)cc2)nc1Oc1ccc2ccccc2c1	MTT	152 µM
CC1(C)[C@@H](CCO)C[C@H]1n1cnc2c(=O)[nH]cnc21	-	108 µg/mL

13 of the rows above, restated:

structure	read by	value
Cc1cn([C@H]2C[C@H](N=[N+]=[N-])[C@@H](COP(=O)(O)C(=O)NCCN)O2)c(=O)[nH]c1=O	MTT	>2400 µM
Cc1cn(CCCO[C@H]2C=C[C@@H](CO)O2)c(=O)[nH]c1=O	MTT	20 µg/mL
CCOC(=O)C(C)N(CC=C(C)C)S(=O)(=O)c1cc(Cl)ccc1N	MTT	>200 µM
COC(=O)Cc1cn([C@@H]2C=C[C@H](CO)O2)c(=O)[nH]c1=O	MTT	>100 µM
CC1(C)[C@@H](CCO)C[C@H]1n1cnc2c(=O)[nH]c(N)nc21	-	≥250 µg/mL
CC1(C)[C@@H](CCO)C[C@H]1n1nnc2c(Cl)nc(N)nc21	-	190 µg/mL
Cc1cc(C)cc(S(=O)(=O)c2c(C(=O)/C=C/C(N)=O)[nH]c3ccc(Cl)cc23)c1	MTT	>200 µM
CC(C)CN(C[C@@H](O)[C@H](Cc1ccccc1)NC(=O)OCc1cccnc1)S(=O)(=O)c1ccc2nc[nH]c2c1	-	>100 µM
CNc1nc(Nc2ccc(C#N)cc2)nc(Oc2ccc3ccccc3c2Br)c1C	MTT	178 µM
CC(C)CN(C[C@@H](O)[C@H](Cc1ccccc1)NC(=O)O[C@H]1CO[C@H]2OCC[C@H]21)S(=O)(=O)c1ccc2c(c1)/C(=C/c1ccc(-c3ccccn3)cc1)C(=O)N2	-	63.1 µM
COC(=O)N[C@H](C(=O)NN(CC[C@@]1(Cc2ccccc2)C(=O)N(C2c3ccccc3C[C@H]2O)C[C@H]1O)Cc1ccc(-c2ccccn2)cc1)C(C)(C)C	XTT	31 µM
c1ccc(CO[C@@H]2[C@H](OCc3ccccc3)[C@@H]3OC[C@@H](O3)[C@H]2OCc2ccccc2)cc1	MTT	>200 µg/mL
Cc1cn(N2CC[C@H](CO)[C@H]2CO)c(=O)[nH]c1=O	-	>10 µg/mL

Rows are shuffled and stem from different studies. An empty or dashed field is not shown.